Anti-infective test results gathered from many reports (values: NIAID ChemDB through PubChem).

Common to all: enzyme or target tests; agent: HIV-1; protein: Reverse transcriptase; endpoint: inhibition

Inhibition is in % at the dose shown (toxicity tests: loss of growth or viability). Blank or dashed fields: not listed here. Rows are shuffled and stem from different studies.

SMILES	tested at	strain	method	mutations	result
COc1ccc2[nH]c(=O)c(CN(C(=O)c3ccccc3)C3CC3)cc2c1	20 µM	-	RT activity / absorbance	-	-9.9%
O=C(CC(=O)Nc1ccc2ccccc2n1)Nc1cc([N+](=O)[O-])ccn1	100 µM	-	RT activity / absorbance	-	71.36%
O=C(c1ccccc1)N(Cc1cc2ccccc2[nH]c1=O)C1CCCC1	20 µM	-	RT activity / absorbance	-	11.3%
O=C(CC(=O)Nc1ccc2ccccc2n1)Nc1cc(CCl)ccn1	100 µM	-	RT activity / absorbance	-	81.57%
O=C(NCCc1ccccc1)NCc1ccoc1	0.1 µg/mL	-	nucleotide incorporation	-	7%
COc1ccc(-c2csc(N3C(=N)SC4C3=NN(c3ccccc3)C4c3ccc(Br)cc3)n2)cc1	100 µg/mL	-	RT activity / absorbance	-	57.85%
Cc1ccc2c(c1)N(C)C(=O)c1ccnnc1O2	330 µM	-	ELISA	-	37%
CCN1c2ccc(C)cc2N(C)C(=O)c2cc(Cl)nnc21	33 µM	-	-	-	13%
Nc1ncnc2c1ncn2C1OC(COP(=O)(O)OC2C(O)C(COP(=O)(O)OC3C(O)C(CO)OC3n3cnc4c(N)ncnc43)OC2n2cnc3c(N)ncnc32)CC1O	10 µM	IIIB	-	-	16%
COc1cc(O)c2c(=O)cc(-c3ccc(Oc4cc(-c5cc(=O)c6c(O)cc(O)cc6o5)ccc4O)cc3)oc2c1	200 µg/mL	-	nucleotide incorporation / radiometric	-	90.1%
C[C@@H]1CC=C2C(CO)=CCC[C@@H]2[C@@]12C[C@@H](c1ccoc1)OC2=O	100 µM	-	RT activity / luminescence	-	20%
C[C@H]1/C=C/[C@@]2(C)CC[C@@H](C(C)(C)O)[C@@H]2[C@@H](O)C[C@](C)(O)/C=C/C1	40 µM	-	nucleotide incorporation / radiometric	-	64%
N=C1SC2C(=NN(c3ccccc3)C2c2ccccc2Cl)N1c1nc(-c2ccc(Cl)cc2)cs1	100 µg/mL	-	RT activity / absorbance	-	62.77%
O=c1[nH]c(SCc2cn[nH]n2)nc(-c2ccc(I)cc2)c1Cl	100 µg/mL	-	RT activity / absorbance	-	90.5%
CC(C)(C)c1csc(NC(=O)NCCc2ccccc2)n1	0.1 µg/mL	-	nucleotide incorporation	-	8%
CCCN1c2ccccc2N(CC)C(=O)c2ccnnc21	330 µM	-	-	-	59%
O=c1[nH]c(SCc2cn[nH]n2)nc(-c2ccc(F)cc2)c1Cl	100 µg/mL	-	RT activity / absorbance	-	92.5%
COc1cccc2cc(CNC3CCCC3)c(=O)[nH]c12	20 µM	-	RT activity / absorbance	-	-40.1%
CCN1c2ncccc2C(=O)Nc2c(C=O)cc(=O)[nH]c21	36 µM	WT	-	-	1%
CCCN1C(=O)c2ccnnc2N(CC)c2ccc(C)cc21	33 µM	-	-	-	32%
Cc1cc(C)c2c(c1)N(CC(C)C)C(=O)c1ccnnc1O2	330 µM	-	ELISA	-	84%
O=C(NCCc1ccccc1)Nc1nc2c(Cl)cccc2s1	1 µg/mL	-	nucleotide incorporation	-	6%
O=c1cc(-c2ccc(O)cc2)oc2c([C@@H]3O[C@H](CO)[C@@H](O)[C@H](O)[C@H]3O)c(O)cc(O)c12	200 µg/mL	-	nucleotide incorporation / radiometric	-	42.1%
Nc1ncnc2c1ncn2[C@@H](C=O)O[C@@H](C=O)COP(=O)(O)OP(=O)(O)OP(=O)(O)O	10 µM	-	absorbance	-	40%
CCCCCC(=O)OCCCC[C@H]1CCCCCC[C@@H](C)NC(N)=[NH+]1	10 µM	-	RT activity / radiometric	-	2.2%
Nc1ncnc2c1ncn2[C@@H]1O[C@H](COP(=O)([O-])O)[C@@H](O)[C@H]1OP(=O)([O-])OC[C@H]1O[C@@H](n2cnc3c(N)ncnc32)[C@H](OP(=O)([O-])OC[C@@H]2C[C@@H](O)[C@H](n3cnc4c(N)ncnc43)O2)[C@@H]1O	10 µM	IIIB	-	-	25%
C[C@@H]1CCC2=C(C=O)CCC[C@@H]2[C@@]12C[C@@H](c1ccoc1)OC2=O	100 µM	-	RT activity / luminescence	-	20%
CCCC(=O)OCCCC[C@H]1CCCCCC[C@@H](C)NC(N)=[NH+]1	10 µM	-	RT activity / radiometric	-	0%
O=C(c1ccccc1)N(Cc1cc2ccccc2[nH]c1=O)C1CC1	20 µM	-	RT activity / absorbance	-	12%
O=C1NC(c2c[nH]c3ccccc23)=C/C1=C1\C(=O)NC2C=CC=CC12	500 µM	-	RT activity / ELISA	-	12.78%
COc1cc(O)c2c(c1)OC(c1ccc(Oc3cc(-c4cc(=O)c5c(O)cc(O)cc5o4)ccc3O)cc1)CC2=O	200 µg/mL	-	nucleotide incorporation / radiometric	-	93.4%
CCN1c2ncccc2C(=O)Nc2c(CO)cc(OC)nc21	89 µM	WT	-	-	1%
CC(=O)OC(C)CCCCC[C@H]1CCCCCC[C@@H](C)NC(N)=[NH+]1.F[B-](F)(F)F	40 µM	-	RT activity / radiometric	-	0.6%
C/C1=C\C=C\C2(C)C=C(CO[C@H]3O[C@H](CO)[C@H](O)[C@H](O)[C@H]3O)C(C)CC23OC([O-])C(C3=O)C(O)/C=C/C2(C)C=C(C=O)C(C)CC23OC([O-])C(C3=O)C(O)/C(C)=C/C=C/C2C=C(CO[C@H]3O[C@H](CO)[C@H](O)[C@H](O)[C@H]3O)C(C)CC23OC([O-])C(C3=O)C(O)/C=C/C2(C)C=C(C=O)C(C)CC23OC([O-])C(C3=O)C1O	20 µg/mL	IIIB	RT activity	-	81.6%
O=C(NCCc1ccccc1)Nc1ncccn1	0.1 µg/mL	-	nucleotide incorporation	-	5%
CCN1c2ccccc2N(C)C(=O)c2ccnnc21	33 µM	-	-	-	50%
COc1c(C)c(O)c(C)c(O)c1C(=O)/C=C/c1ccccc1	200 µg/mL	-	RT activity / nucleotide incorporation / radiometric	-	67.5%
COc1ccc(-c2csc(N3C(=N)SC4C3=NN(c3ccccc3)C4c3ccc(Cl)cc3)n2)cc1	100 µg/mL	-	RT activity / absorbance	-	69.84%
O=C(c1ccccc1)N(Cc1cc2ccccc2[nH]c1=O)C1CCCCC1	20 µM	-	RT activity / absorbance	-	14.2%
CC(=O)OCCCC[C@H]1CCCCCC[C@@H](C)NC(N)=[NH+]1	40 µM	-	RT activity / radiometric	-	0.3%
Cc1ccc(NC(=O)CC(=O)Nc2ccc3ccccc3n2)nc1	100 µM	-	RT activity / absorbance	-	90.8%
CCN1c2ncccc2C(=O)Nc2c(COc3ccccc3)cc(=O)[nH]c21	33 µM	WT	-	-	1%
CCCCN1C(=O)c2cc(Cl)nnc2N(C2CC2)c2ccccc21	33 µM	-	-	-	1%
Cc1ccnc(NC(=O)NCCc2ccccc2)n1	10 µg/mL	-	nucleotide incorporation	-	9%
CN1C(=O)c2cc(Cl)nnc2N(C2CC2)c2ccccc21	33 µM	-	-	-	56%
O=C(NCCc1ccccc1)Nc1ccc(Cl)cc1	1 µg/mL	-	nucleotide incorporation	-	29%
CCN1c2ncccc2C(=O)Nc2c(C3OCCCO3)cc(OC)nc21	22 µM	-	-	RT-Y181C	1%
CCCCN1C(=O)c2ccnnc2Oc2ccc(C)cc21	33 µM	-	ELISA	-	16%
O=C(CC(=O)Nc1ccc2ccccc2n1)Nc1ccc(CCl)cn1	100 µM	-	RT activity / absorbance	-	85.39%
O=C(NCCc1ccccc1)Nc1ccn[nH]1	10 µg/mL	-	nucleotide incorporation	-	38%
CCN1c2ncccc2C(=O)Nc2c(CO)cc(=O)[nH]c21	51 µM	WT	-	-	1%
CCCN1C(=O)c2ccnnc2N(CCC)c2ccc(C)cc21	33 µM	-	-	-	1%
CCCCCCCCCC(=O)OCCCC[C@H]1CCCCCC[C@@H](C)NC(N)=[NH+]1	40 µM	-	RT activity / radiometric	-	30.7%
O=C1Nc2ccccc2Oc2nnccc21	330 µM	-	ELISA	-	29%
CCCN1c2ccccc2N(C)C(=O)c2ccnnc21	33 µM	-	-	-	36%
CC(NC(=S)Nc1nc2ccccc2s1)c1ccccc1	50 µM	-	ELISA / absorbance	-	85.3%
CCN1c2ncccc2C(=O)Nc2c(Cc3ccccc3)cc(-c3cccc(OC)c3)nc21	20 µM	WT	-	-	1%
Nc1ncnc2c1ncn2[C@@H]1O[C@H](COP(=O)([O-])O)[C@@H](O)[C@H]1OP(=O)([O-])OC[C@@H]1C[C@@H](OP(=O)([O-])OC[C@@H]2C[C@@H](O)[C@H](n3cnc4c(N)ncnc43)O2)[C@H](n2cnc3c(N)ncnc32)O1	10 µM	IIIB	-	-	20%
O=C(CC(=O)Nc1ncc(Cl)cc1Cl)Nc1ccc2ccccc2n1	100 µM	-	RT activity / absorbance	-	78.33%

Repeating the final 8 entries:

SMILES | tested at | strain | method | mutations | result
CCCN1C(=O)c2ccnnc2N(CCC)c2ccc(C)cc21 | 33 µM | - | - | - | 1%
CCCCCCCCCC(=O)OCCCC[C@H]1CCCCCC[C@@H](C)NC(N)=[NH+]1 | 40 µM | - | RT activity / radiometric | - | 30.7%
O=C1Nc2ccccc2Oc2nnccc21 | 330 µM | - | ELISA | - | 29%
CCCN1c2ccccc2N(C)C(=O)c2ccnnc21 | 33 µM | - | - | - | 36%
CC(NC(=S)Nc1nc2ccccc2s1)c1ccccc1 | 50 µM | - | ELISA / absorbance | - | 85.3%
CCN1c2ncccc2C(=O)Nc2c(Cc3ccccc3)cc(-c3cccc(OC)c3)nc21 | 20 µM | WT | - | - | 1%
Nc1ncnc2c1ncn2[C@@H]1O[C@H](COP(=O)([O-])O)[C@@H](O)[C@H]1OP(=O)([O-])OC[C@@H]1C[C@@H](OP(=O)([O-])OC[C@@H]2C[C@@H](O)[C@H](n3cnc4c(N)ncnc43)O2)[C@H](n2cnc3c(N)ncnc32)O1 | 10 µM | IIIB | - | - | 20%
O=C(CC(=O)Nc1ncc(Cl)cc1Cl)Nc1ccc2ccccc2n1 | 100 µM | - | RT activity / absorbance | - | 78.33%